Experimental findings from patent US20240132619A1 are described below.

Assay [1] concerns the target mouse serum albumin (MSA) (mouse) (UniProt P07724). The assay is described as follows: ELISA, MSA coated on plate, n = 3. On the technique in general: In an ELISA, binding on a coated surface is turned into a signal by an enzyme label.
The target of assay [2] is human serum albumin (HSA) (human) (UniProt P02768). The assay is described as follows: ELISA, HSA coated on plate, n = 3.

On to SS1-ABD-dsFv-LRGGS-PE24 (LMB-164), for which the Affinity was found to be 0.1 nM in assay [1] and 0.08 nM in assay [2].
